From PMC11784200, “Insights into antibiotic resistance promoted by quinolone exposure” (Antimicrobial Agents and Chemotherapy, 2024)

Tested on: E. coli MLS83L
Assay: QIAR assay, quinolone-resistant strain
Settings: MLS83L at sub-MIC levels of CIP for this strain

O=C(O)c1cn(C2CC2)c2cc(N3CCNCC3)c(F)cc2c1=O [CIP, ciprofloxacin]
KAN resistance frequency, times lower than the wild type: approximately 100 times
